Pooled drug test results. Numbers come from NIAID ChemDB, via PubChem.

All rows: cytotoxicity tests; cell line: HEP-2; endpoint: CC50

Conditions beyond the fields shown may differ between rows. CCn is the concentration with n% toxicity to the cells.

structure | value
O=C(/C=C/c1ccc(O)c(O)c1)O[C@@H]1CC(O)(C(=O)O)C[C@@H](OC(=O)/C=C/c2ccc(O)c(O)c2)C1O | >394.4 µg/mL
CC(C)CCCCC(O)C12C[C@@H]3[C@H](C)CC[C@H]3C3(C=O)CC1C=C(C(C)C)[C@@]23C(=O)O | 2.5 µg/mL
CCOC(=O)c1cc(C(=O)O)c(=O)n2c1[nH]c1ccccc12 | 40 µg/mL
CSc1nsc(C2CCCCC2)c1C#N | 50 µM
CC(C)C1=CC2CC3(C=O)[C@@H]4CC[C@@H](C)[C@H]4CC2(C(=O)C#CC(C)(C)C)[C@]13C(=O)O | 1.4 µg/mL
CSc1nsc(-c2ccc(O)cc2)c1C#N | 2 µM
CSc1nsc(-c2ccc(OCc3ccccc3)cc2)c1C#N | >50 µM
N#Cc1cc(C(=O)O)c(=O)n2c1[nH]c1ccccc12 | 200 µg/mL
CSc1nsc(-c2ccc(OS(=O)(=O)c3ccc(C)cc3)cc2)c1C#N | >25 µM
Nc1ccn(C[C@@H](CO)OCP(=O)(O)O)c(=O)n1 | 184.8 µg/mL
O=c1cc(-c2ccc(O)c(O)c2)oc2cc(OC3OC(CO)C(O)C(O)C3O)cc(O)c12 | >25 µg/mL
CSc1nsc(-c2ccccc2)c1C#N | 20 µM
CC(C)C1=CC2CC3(C=O)[C@@H]4CC[C@@H](C)[C@H]4CC2(C(O)CCC2CCCCC2)C13C(=O)O | 1.8 µg/mL
CC(=O)c1cc(NC(=O)c2ccccc2)c(=O)n2c1[nH]c1ccccc12 | 40 µg/mL
Cc1cc(=O)c2c(O)c(C)c(O[C@H]3O[C@H](CO)[C@@H](O)[C@H](O)[C@H]3O)c(C)c2o1 | 82.5 µg/mL
CSc1nsc(-c2cccc(Cl)c2)c1C#N | 10 µM
N#Cc1cc(CC(=O)c2ccccc2)c(=O)n2c1oc1ccccc12 | 40 µg/mL

Repeating the first 2 entries:

| structure | value |
|---|---|
| O=C(/C=C/c1ccc(O)c(O)c1)O[C@@H]1CC(O)(C(=O)O)C[C@@H](OC(=O)/C=C/c2ccc(O)c(O)c2)C1O | >394.4 µg/mL |
| CC(C)CCCCC(O)C12C[C@@H]3[C@H](C)CC[C@H]3C3(C=O)CC1C=C(C(C)C)[C@@]23C(=O)O | 2.5 µg/mL |